Values of other authors as cited in doi:10.1101/2025.05.02.651913 (bioRxiv, 2025).

Test system: Clade I MPXV
Details: cited from earlier work

B1: IFN-β (protein, UniProt P01574 22-187, looked up)
Interferon beta: MSYNLLGFLQRSSNFQCQKLLWQLNGRLEYCLKDRMNFDIPEEIKQLQQFQKEDAALTIYEMLQNIFAIFRQDSSSTGWNETIVENLLANVYHQINHLKTVLEEKLEKEDFTRGKLMSSLHLKRYYGRILHYLKAKEYSHCAWTIVRVEILRNFYFINRLTGYLRN
In the case of B1, the “Clade I MPXV infection in vitro” value is given as “significantly reduce Clade I MPXV infection”.
